Measured values from several laboratories, pooled; numbers as filed in NIAID ChemDB.

Common to all: tests in culture; organism: Mycobacterium tuberculosis

A number after MIC or MFC names an inhibition level or a share of isolates. Fold resistance has wild type as its base. Inhibition is in % at the dose shown (toxicity tests: loss of growth or viability). ECn: concentration that inhibits the pathogen or its effect by n%. Rows are shuffled and stem from different studies. Blank or dashed fields: not listed here. MIC bound: limit read from a one-dose screen. a–b is a range or a potency band.

compound	strain	mutations	measure	dose	read by	cell line	result
Oc1ccc(Br)cc1-c1nc2cc(Cl)c(Cl)cc2nc1-c1cc(Br)ccc1O	H37Rv	-	inhibition	6.25 µg/mL	BACTEC	-	99%
O=C(Cc1ccccc1)SCC1CS1	H37Rv	-	MIC	-	-	-	12.5 µg/mL
Cc1cc(=O)c2c(o1)C(=O)c1occc1C2=O	H37Rv	-	MIC bound	-	BACTEC	-	>12.5 µg/mL
CCCCCCC(=O)c1cc(O)cc(O)c1	H37Rv	-	MIC	-	-	-	19 µg/mL
O=C1OC(c2ccc(Cl)cc2)=C/C1=C/c1cc2cc(Cl)ccc2nc1Cl	H37Rv	-	EC50	-	resazurin	-	>100 µg/mL
CN(C)CCCn1ncc(Sc2cc([N+](=O)[O-])ccc2N)c(Cl)c1=O	H37Rv	-	inhibition	12.5 µg/mL	BACTEC	-	2%
C=CN(O)C[C@@H](CCCC)C(=O)N[C@H](C(=O)N(C)C)C(C)(C)C	-	-	MIC90	-	-	-	0.2 µg/mL
CO[C@H]1/C=C/O[C@@]2(C)Oc3c(C)c(=O)c4c(O)c(c5oc6cccc(O[Si](C)(C)C(C)(C)C)c6nc5c4c3C2=O)NC(=O)/C(C)=C\C=C\[C@H](C)[C@H](O)[C@@H](C)[C@@H](O)[C@@H](C)[C@H](OC(C)=O)[C@@H]1C	H37Rv	-	MIC	-	-	-	0.035 µg/mL
CCOC(=O)c1cc(-c2ccc(Cl)cc2)n(CCC(=O)NN)c1C	H37Rv	-	EC50	-	BACTEC	-	>6.25 µg/mL
CCCCC(=O)N/N=C/c1cc2c(cc1[N+](=O)[O-])OCO2.NN1CCOCC1	H37Rv	-	inhibition	12.5 µg/mL	BACTEC	-	7%
Cc1cc(O)c2c(c1)C(=O)c1cc(O)cc(O)c1C2=O	-	-	inhibition	200 µM	fluorescence	-	73.09%
COc1ccccc1N(N=O)C(C)=O	H37Rv	-	inhibition	12.5 µg/mL	BACTEC	-	12%
O=C(C=Cc1ccc(O)cc1)c1ccc(O)cc1O	-	-	inhibition	200 µM	fluorescence	-	83.6%
C=C(C)/C=C/[C@]12C[C@H](C)C3CC[C@](C)(N)[C@@H](CC[C@H]1C)[C@@H]32	H37Rv	-	MIC100	-	resazurin	-	6 µg/mL
CCCCCCSc1cc(C(N)=S)cc(SCC)n1	H37Rv	-	MIC	-	-	-	30 µM
CO[C@H]1/C=C/O[C@@]2(C)Oc3c(C)c(O)c4c(=O)c(c5oc6cc(N7CCN(C(C)(C)C)CC7)cc(=O)c6nc5c4c3=C2O)NC(=O)/C(C)=C\C=C\[C@H](C)[C@H](O)[C@@H](C)[C@@H](O)[C@@H](C)[C@H](OC(C)=O)[C@@H]1C	H37Rv	-	MIC	-	-	-	0.008 µg/mL
O=C(SCC1CS1)c1ccccc1	H37Rv	-	MIC	-	-	-	1.56 µg/mL
CCCCC(=O)NN(Cn1c(=S)sc2ccccc21)Cn1c(=S)sc2ccccc21	H37Rv	-	inhibition	12.5 µg/mL	BACTEC	-	52%
Brc1ccc2nc(CCC3CCCCC3)[nH]c2c1	H37Rv	6A MmpL3 (V684A)	MIC90	-	visual reading / absorbance	-	22.8 µM
C=C(C)/C=C/[C@]12C[C@H](C)C3CC[C@](C)(C#N)[C@@H](CC[C@H]1C)[C@@H]32	H37Rv	-	MIC100	-	resazurin	-	8 µg/mL
Cc1cc(=O)oc2cc(OCc3nnc(NC(=O)c4cccc(Cl)c4)o3)ccc12	H37Rv	-	EC50	-	resazurin	-	52.5 µg/mL
Cc1ccc(NC(=O)C(C)NCC(C)C)cc1Cl.Cl	H37Rv	-	MIC bound	-	BACTEC	-	>12.5 µg/mL
NNC(=O)c1ccncc1	05001 (H37RV)	-	MIC	-	-	-	0.04–0.05 µg/mL
Oc1cc(O)c2c(c1)O[C@H](c1ccc(O)c(O)c1)[C@@H](O)C2	H37Rv	-	MIC	-	-	-	150 µg/mL
CO[C@H]1/C=C/O[C@@]2(C)Oc3c(C)c(O)c4c(=O)c(c5oc6cc(N7CCCC7)cc(=O)c6nc5c4c3=C2O)NC(=O)/C(C)=C\C=C\[C@H](C)[C@H](O)[C@@H](C)[C@@H](O)[C@@H](C)[C@H](OC(C)=O)[C@@H]1C	H37Rv	-	MIC	-	-	-	0.017 µg/mL
CCCc1[nH]n(-c2cccc([N+](=O)[O-])c2)c(=O)c1N=Nc1ccc(Cl)cc1	H37Rv	-	MIC bound	-	BACTEC	-	>12.8 µg/mL
NC(=O)c1cnccn1	H37Rv	-	EC50	-	resazurin	-	23.62 µg/mL
C/C(=N\NC(=S)N1CCN(C(=S)N/N=C(\C)c2ccccn2)CC1)c1ccccn1	H37Rv	-	MIC bound	-	BACTEC	-	≤12.5 µg/mL
COCCN(CCOC)c1cc(=O)c2nc3c(oc2c1)c1c(=O)c2c(O)c(C)c4c(c23)=C(O)[C@@](C)(O/C=C/[C@H](OC)[C@@H](C)[C@@H](OC(C)=O)[C@H](C)[C@H](O)[C@H](C)[C@@H](O)[C@@H](C)/C=C/C=C(/C)C(=O)N1)O4	H37Rv	-	MIC	-	-	-	0.004 µg/mL
CC(=O)Nc1ccc(S(=O)(=O)n2oc(=O)c(-c3ccccc3)c2N)cc1	H37Rv	-	inhibition	6.25 µg/mL	resazurin	-	28%
CO[C@H]1/C=C/O[C@@]2(C)Oc3c(C)c(O)c4c(=O)c(c5oc6cc(N7CCN(C)CC7)cc(=O)c6nc5c4c3=C2O)NC(=O)/C(C)=C\C=C\[C@H](C)[C@H](O)[C@@H](C)[C@@H](O)[C@@H](C)[C@H](OC(C)=O)[C@@H]1C	H37Rv	-	MIC	-	-	-	0.017 µg/mL
CO[C@H]1/C=C/O[C@@]2(C)Oc3c(C)c(O)c4c(O)c(c(/C=N/N5CCN(C)CC5)c(O)c4c3C2=O)NC(=O)/C(C)=C\C=C\[C@H](C)[C@H](O)[C@@H](C)[C@@H](O)[C@@H](C)[C@H](OC(C)=O)[C@@H]1C	H37Rv	-	EC50	-	resazurin	-	0.4 µg/mL
CC(S)CSCCS	H37Rv	-	MIC	-	-	-	>100 µg/mL
CC(C)=NNC(=O)Nc1ccc(C)c(Cl)c1	H37Rv	-	MIC	-	BACTEC	-	>12.5 µg/mL
CCOC(=O)c1cc(-c2cccc([N+](=O)[O-])c2)n(CCC(=O)NN)c1C	H37Rv	-	inhibition	6.25 µg/mL	BACTEC	-	0%
CCCC(=O)SCC1CS1	H37Rv	-	MIC	-	-	-	6.25–12.5 µg/mL
O=C1CSC(c2ccccc2Cl)N1c1nncs1	H37Rv	-	inhibition	12.5 µg/mL	BACTEC	-	10%
CN1CCN(c2cc3c(cc2F)c(=O)c(C(=O)O)cn3-c2ccc(F)cc2)CC1	-	-	MIC90	-	-	-	4.7 µg/mL
CO[C@H]1/C=C/O[C@@]2(C)Oc3c(C)c(O)c4c(=O)c(c5oc6cc(N(C)C)cc(=O)c6nc5c4c3=C2O)NC(=O)/C(C)=C\C=C\[C@H](C)[C@H](O)[C@@H](C)[C@@H](O)[C@@H](C)[C@H](OC(C)=O)[C@@H]1C	H37Rv	-	MIC	-	-	-	0.008 µg/mL
NC(=O)c1cnccn1	H37Rv	-	MIC	-	-	-	50 µg/mL
CCOC(=O)c1c(C)c(-c2ccccc2)n(CC(=O)N/N=C/c2ccc[nH]2)c1C	H37Rv	-	EC50	-	BACTEC	-	>6.25 µg/mL
COc1ccc(-c2cc(=O)c3c(O)c(OC)c(OC4OC(COC5OC(C)C(O)C(O)C5O)C(O)C(O)C4O)cc3o2)cc1	-	-	inhibition	200 µM	fluorescence	-	88.69%
COC(=O)CCC(=O)SCC1CS1	H37Rv	-	MIC	-	-	-	1.56–3.125 µg/mL
C=C/C(C)=C/[C@@]1(C)SC(=O)C(C)=C1O	NHN113	-	MIC	-	-	-	20 µg/mL
O=C(NCC(=O)SCC1CS1)OCc1ccccc1	H37Rv	-	MIC	-	-	-	25 µg/mL
COc1ccc(C2=C/C(=C/c3cc4ccccc4nc3Cl)C(=O)O2)cc1	H37Rv	-	EC50	-	resazurin	-	>100 µg/mL
CCN(CC)CCCN(C)Cc1c(-c2ccccc2)oc(-c2ccccc2)c1Cl	H37Rv	-	MIC	-	-	VERO	1.56 µg/mL
CCSc1cc(C(N)=O)cc(Cl)n1	H37Rv	-	MIC	-	-	-	500 µM
CC[C@H]1OC(=O)[C@H](C)[C@@H](O[C@H]2C[C@@](C)(OC)[C@@H](O)[C@H](C)O2)[C@H](C)[C@@H](O[C@@H]2O[C@H](C)C[C@H](N(C)C)[C@H]2O)[C@](C)(OC)C[C@@H](C)C(=O)[C@H](C)[C@@H](O)[C@]1(C)O	-	-	MIC90	-	-	-	>10 µg/mL
CCc1ccc([C@H]2C[C@@H](C(F)(F)F)n3ncc(C(=O)NCc4ccc5c(c4)OCO5)c3N2)cc1	H37Rv	MmpL3: Ala249Pro	fold resistance	-	fluorescence	-	8
CCOC(=O)c1[nH]c(/C=N/NC(=O)c2c(C)c[nH]c2C)c(C(=O)OCC)c1C	H37Rv	-	inhibition	6.25 µg/mL	BACTEC	-	68%
CCCCCCSc1cc(C(N)=S)cc(SCCCC)n1	H37Rv	-	MIC	-	-	-	30 µM
CNC(=O)[C@@H](C)[C@H]1C(=O)\C(=C(O)/C=C/C(C)=C/[C@@H](C)[C@@H]2O[C@]3(C)O[C@@H](CC[C@]34CO4)[C@@H]2C)C(=O)N1[C@@H]1CC[C@H](O)[C@H](C)O1	H37Rv	-	MIC90	-	resazurin	-	>200 µg/mL
CN[C@@H]1[C@H](O[C@H]2[C@H](O[C@H]3[C@H](O)[C@@H](O)[C@H](N=C(N)N)[C@@H](O)[C@@H]3N=C(N)N)O[C@@H](C)[C@]2(O)C=O)O[C@@H](CO)[C@H](O)[C@H]1O	H37Rv	-	MIC90	-	visual reading	-	1.4 µM
NC(=O)c1cccnc1	H37Rv	-	inhibition	12.5 µg/mL	BACTEC	-	1%
CO[C@H]1/C=C/O[C@@]2(C)Oc3c(C)c(O)c4c(O)c(c(/C=N/N5CCN(C)CC5)c(O)c4c3C2=O)NC(=O)/C(C)=C\C=C\[C@H](C)[C@H](O)[C@@H](C)[C@@H](O)[C@@H](C)[C@H](OC(C)=O)[C@@H]1C	H37Rv	-	MIC90	-	visual reading / absorbance	-	0.6 µM
CCOC(=O)c1cc(-c2ccc([N+](=O)[O-])cc2)n(CC(=O)NN)c1C	H37Rv	-	inhibition	6.25 µg/mL	BACTEC	-	34%
CN1C(=O)C2SC(=NNc3ccccc3)SC1C(=O)N2C	H37Rv	-	MIC bound	-	BACTEC	-	≤12.5 µg/mL
CCCCCCCCC(=O)c1cc(O)cc(O)c1	H37Rv	-	MIC	-	-	-	6 µg/mL
Cc1cc(=O)c2c([nH]1)c1c(c3[nH]c(C)cc(=O)c32)Oc2ccccc2O1	H37Rv	-	MIC bound	-	resazurin	-	>6.25 µg/mL
CC1=C(O)C(=O)C=C2C1=CC=C1C2(C)CCC2(C)C3CC(C)(C(=O)O)CCC3(C)CCC12C	-	-	inhibition	200 µM	fluorescence	-	69.56%
CO[C@H]1/C=C/O[C@@]2(C)Oc3c(C)c(O)c4c(O)c(c(/C=N/N5CCN(C/C=C/c6ccccc6)CC5)c(O)c4c3C2=O)NC(=O)/C(C)=C\C=C\[C@H](C)[C@H](O)[C@@H](C)[C@@H](O)[C@@H](C)[C@H](OC(C)=O)[C@@H]1C	2219 (MDR)	-	MIC	-	-	-	>8 µg/mL
CCCCCCCCSc1cc(C(N)=S)cc(SCCCCCC)n1	H37Rv	-	MIC	-	-	-	125 µM
CO[C@H]1/C=C/O[C@@]2(C)Oc3c(C)c(O)c4c(=O)c(c5oc6cc(N7CCN(CCC(C)C)CC7)cc(=O)c6nc5c4c3=C2O)NC(=O)/C(C)=C\C=C\[C@H](C)[C@H](O)[C@@H](C)[C@@H](O)[C@@H](C)[C@H](OC(C)=O)[C@@H]1C	H37Rv	-	MIC	-	-	-	0.07 µg/mL
CCOC(=O)c1cc(-c2ccccc2)n(CC(=O)N/N=C/c2ccc[nH]2)c1C	H37Rv	-	inhibition	6.25 µg/mL	BACTEC	-	2%
CC1SC1CS	H37Rv	-	MIC	-	-	-	100 µg/mL
O=C(NNc1nc(CCl)cs1)c1ccccc1Cl	H37Rv	-	inhibition	12.5 µg/mL	BACTEC	-	48%
O=C(O)C1OC(Oc2cc3oc(-c4ccccc4)cc(=O)c3c(O)c2O)C(O)C(O)C1O	-	-	inhibition	200 µM	fluorescence	-	78.47%
NNC(=O)c1ccc(C(=O)NN)o1	H37Rv	-	MIC	-	BACTEC	-	≥12.5 µg/mL
CCOC(=O)c1c(C)c(-c2ccccc2)n(CC(=O)N/N=C/c2ccc(O)c(OCC)c2)c1C	H37Rv	-	EC50	-	BACTEC	-	>6.25 µg/mL
O=C1CCCC2=C1CC1=C(CCCC1=O)N2c1cccc2ccccc12	H37Rv	-	MIC bound	-	BACTEC	-	>12.5 µg/mL
COc1cc(O)cc(CCCCCCC/C=C\CCCCCCCc2cc(O)cc(O)c2)c1	H37Rv	-	MIC	-	-	-	160 µg/mL
C=C1C(=O)[C@@]23CC[C@H]4C(C)(CCC[C@@]4(C)C(=O)OC)[C@@H]2CC[C@]1(O)C3	ETA-R	-	MIC	-	-	-	6.3 µg/mL
C=C(C)/C=C/[C@]12C[C@H](C)[C@H]3CC[C@](C)(NC)[C@@H](CC[C@H]1C)[C@@H]32	H37Rv	-	MIC	-	-	-	15 µg/mL

Repeating the first 5 entries:

compound	strain	mutations	measure	dose	read by	cell line	result
Oc1ccc(Br)cc1-c1nc2cc(Cl)c(Cl)cc2nc1-c1cc(Br)ccc1O	H37Rv	-	inhibition	6.25 µg/mL	BACTEC	-	99%
O=C(Cc1ccccc1)SCC1CS1	H37Rv	-	MIC	-	-	-	12.5 µg/mL
Cc1cc(=O)c2c(o1)C(=O)c1occc1C2=O	H37Rv	-	MIC bound	-	BACTEC	-	>12.5 µg/mL
CCCCCCC(=O)c1cc(O)cc(O)c1	H37Rv	-	MIC	-	-	-	19 µg/mL
O=C1OC(c2ccc(Cl)cc2)=C/C1=C/c1cc2cc(Cl)ccc2nc1Cl	H37Rv	-	EC50	-	resazurin	-	>100 µg/mL